Measured values taken from patent publication US5491135A (priority 1993, dated 1996).

Experiments:
simian varicella virus = test: Simian varicella virus infection in African green monkeys; conditions: monkey, in vivo
Experimental: Fifteen African green monkeys were weighed and bled for clinical chemistry hematology baselines. […] Each of the 15 monkeys were infected with simian varicella virus by intratracheal inoculation of 3.7×10^4 plaque forming units (PFU) of simian varicella virus. […] Control monkeys, service as infection controls, received twice daily intravenous injections of phosphate buffered saline administered at 1.0 ml/kg of body weight. A second group of three monkeys received PALA at 50 mg/kg/day given by intravenous bolus injection into the saphenous vein. A third group was given a lower dose of PALA at 20 mg/kg/day administered in a similar manner. […]
Acyclovir received as a gift from Burroughs Wellcome was weighed out as a 200 mg quantity. […]
The clinical course of simian varicella infection was followed by collection of 2 ml of blood in heparin on day 2, 5, 7, 9 and 11 post-inoculation. […] When dried the number of plaques in each flask were counted and the mean number of plaques between the two paired flasks were determined and expressed as a quantitation of viremia per ml of blood.
Rash was evaluated daily using a subjective scoring of severity from ± to 4+. […] General clinical condition was assessed daily and anorexia noted by counting the number of food biscuits consumed daily. […]
At 14 and 21 days after virus inoculation, blood was taken and the serum separated for quantitation of antibody. […]

[1] = system: respiratory syncytial virus (RSV); test: RSV infection in cotton rats, lung titre; type: in vivo, cotton rat
From the text: 1. 50 to 100 g cotton rats of either sex inoculated i.n. with RS A2 (pool 8-28-92) on day 0.
2. On day +1 animals were given placebo or PALA as follows:
3. All animals killed on day +4 and their lungs tested for RSV levels.

| Structure (SMILES) | serum neutralizing antibody titer vs control (simian varicella virus) | Mean rank (Newman-Keuls) ([1]; ribavirin 90 mg/kg/day as printed) | Mean rank (Newman-Keuls) ([1]; PALA 3 mg/kg/day i.p.) | Mean rank (Newman-Keuls) ([1]; PALA 10 mg/kg/day i.p.) |
| --- | --- | --- | --- | --- |
| Nc1nc2c(ncn2COCCO)c(=O)[nH]1 [Acyclovir, reference compound] | comparable |  |  |  |
| NC(=O)c1ncn([C@@H]2O[C@H](CO)[C@@H](O)[C@H]2O)n1 [RIBAVIRIN, reference compound] |  | 8.5000 |  |  |
| O=C(O)C[C@H](NC(=O)CP(=O)(O)O)C(=O)O [PALA] | comparable |  | 9.5000 | 4.6250 |
